Measured values from several laboratories, pooled; numbers as filed in NIAID ChemDB.

All rows: growth or infection tests; organism: Candida albicans

Percent inhibition refers to the dose given; in toxicity tests it is the harm to the cells. A number after MIC or MFC names an inhibition level or a share of isolates. Rows are shuffled and stem from different studies. Zone: diameter of growth inhibition. Blank or dashed fields: not listed here. a–b is a range or a potency band.

compound	strain	measure	tested at	conditions	method	result
Cc1ccc2nc(Cl)c(C3SC(=Cc4cccc(Cl)c4)C(=O)N3n3c(-c4ccc(Cl)cc4)nc4ccccc4c3=O)cc2c1		MIC99			broth dilution / visual reading	100 µg/mL
OC(CN1CCN(c2ccc(OCc3ccncc3)cc2)CC1)(Cn1cncn1)c1ccc(F)cc1F	303052	MIC80				≤0.031 µg/mL
Cc1ccc(C(C)C)cc1O	M1	MLC				0.32 µg/mL
C[C@H]1[C@H](O)[C@@H](C)/C=C/C=C/C=C/C=C/C=C/C=C/C=C/[C@H](O[C@@H]2O[C@H](C)[C@@H](O)[C@H](N)[C@@H]2O)C[C@@H]2O[C@](O)(C[C@@H](O)C[C@@H](O)CC[C@H](O)[C@@H](O)C[C@@H](O)CC(=O)O[C@H]1C)C[C@H](O)[C@H]2C(=O)O	55 strains (fluconazole-susceptible)	Geometric mean MIC				<0.09 µg/mL
COc1ccc(C(c2ccc(OC)cc2)n2cncn2)cc1		MIC90			agar	>256 µg/mL
CC1(C)CC(=O)c2cc(C3CC(c4ccc(Cl)cc4)=NN3C(N)=S)[nH]c2C1	ATCC 2091	zone	1000 µg/mL			23 mm
CCC(C)CC(C)CCCCCCCCC(=O)N[C@H]1C[C@@H](O)[C@H](NCCN)NC(=O)[C@@H]2[C@@H](O)CCN2C(=O)[C@H]([C@H](O)CCN)NC(=O)[C@H]([C@H](O)[C@@H](O)c2ccc(O)cc2)NC(=O)[C@@H]2C[C@@H](O)CN2C(=O)[C@H]([C@@H](C)O)NC1=O	10 strains (fluconazole-resistant)	MFC90				2 µg/mL
CCC(C)n1ncn(-c2ccc(N3CCN(c4ccc(OC[C@H]5CO[C@](Cn6cncn6)(c6ccc(Cl)cc6Cl)O5)cc4)CC3)cc2)c1=O	5 isolates fluconazole-susceptible	Geometric mean MIC				0.142 µg/mL
Clc1cc(Cl)c2c(c1)CCc1ccccc1C2n1ccnc1	12 isolates	Geometric mean MIC				0.03 µg/mL
Clc1ccc(C(Cn2ccnc2)OCc2csc3c(Cl)cccc23)c(Cl)c1	63 isolates	MIC50		48 h	visual reading	1 µg/mL
Cc1ccc2nc(Cl)c(C3SC(=Cc4ccc([N+](=O)[O-])cc4)C(=O)N3n3c(-c4ccc(Cl)cc4)nc4ccccc4c3=O)cc2c1		MIC99			broth dilution / visual reading	100 µg/mL
CC1(C)O[C@H]2[C@H](O)[C@@H](N=[N+]=[N-])C=C(c3ccc(C=O)cc3)[C@H]2O1	ATCC 10231	inhibition	7.8 µg/mL		broth dilution / turbidity	24.18%
Cc1ccc(C(C)C)c(O)c1	M1	MLC				0.32 µg/mL
c1ccc(C(c2ccccc2)n2ccnc2)cc1		MFC			broth dilution	64 µg/mL
CCC(C)CC(C)CCCCCCCCC(=O)N[C@H]1C[C@@H](O)[C@H](NCCN)NC(=O)[C@@H]2[C@@H](O)CCN2C(=O)[C@H]([C@H](O)CCN)NC(=O)[C@H]([C@H](O)[C@@H](O)c2ccc(O)cc2)NC(=O)[C@@H]2C[C@@H](O)CN2C(=O)[C@H]([C@@H](C)O)NC1=O	8 strains	Geometric mean MIC				0.5 µg/mL
Cc1ccc2nc(Cl)c(C3SC(=Cc4ccccc4O)C(=O)N3n3c(-c4ccc(Cl)cc4)nc4ccccc4c3=O)cc2c1		MIC99			broth dilution / visual reading	500 µg/mL
O=C(c1ccccc1)C(c1ccccc1)n1cncn1		MIC90			agar	64 µg/mL
C=CCSS(=O)CC=C	Clinical Isolate 3151	MIC90			broth dilution	3.13 µg/mL
NCCCC[C@H](NC(=O)[C@H](CCCN=C(N)N)NC(=O)[C@H](CCCN=C(N)N)NC(=O)[C@H](CCCCN)NC(=O)[C@H](CCCCN)NC(=O)[C@@H](N)CCCCN)C(=O)N[C@@H](CCCN=C(N)N)C(=O)O	ATCC 10231	inhibition	50 µM			0%
Cc1ccc2nc(Cl)c(C3SC(=Cc4cccc(O)c4)C(=O)N3n3c(-c4ccc(Cl)cc4)nc4ccccc4c3=O)cc2c1		MIC99			broth dilution / visual reading	100 µg/mL
CCC(C)n1ncn(-c2ccc(N3CCN(c4ccc(OC[C@H]5CO[C@](Cn6cncn6)(c6ccc(Cl)cc6Cl)O5)cc4)CC3)cc2)c1=O	12 isolates	MFC90				>8 µg/mL
COc1ccc(C2=CC(c3ccc(S(N)(=O)=O)cc3)C(c3ccccc3)C2)cc1	ATCC 2091	zone	1000 µg/mL			22 mm
CCCCCOc1ccc(-c2cc(-c3ccc(C(=O)N[C@H]4C[C@@H](O)[C@@H](O)NC(=O)[C@@H]5[C@@H](O)[C@@H](C)CN5C(=O)[C@H]([C@H](O)CC(N)=O)NC(=O)[C@H]([C@H](O)[C@@H](O)c5ccc(O)c(OS(=O)(=O)O)c5)NC(=O)[C@@H]5C[C@@H](O)CN5C(=O)[C@H]([C@@H](C)O)NC4=O)cc3)no2)cc1	12 isolates fluconazole-resistant	Geometric mean MIC				0.015 µg/mL
COc1ccc(C=C2SC(c3cc4cc(C)ccc4nc3Cl)N(n3c(-c4ccc(Cl)cc4)nc4ccccc4c3=O)C2=O)cc1		MIC99			broth dilution / visual reading	500 µg/mL
O[C@](Cn1cncn1)(Cn1cnc(/C=C/c2ccc(OCC(F)(F)C(F)F)cc2)n1)c1ccc(F)cc1F		Mean MIC80				0.38 µg/mL
CC(C)C[C@H](N)C(=O)O	ATCC 10231	MFC100			broth dilution	>72000 µg/mL
NS(=O)(=O)c1ccc(C2C=C(c3ccc(Cl)cc3)CC2c2ccccc2)cc1	ATCC 2091	zone	1000 µg/mL			23 mm
Clc1ccc(C(c2ccccc2)n2ccnc2)cc1		MIC90			agar	0.5 µg/mL
Clc1nssc1=Nc1cccc2ncccc12	ATCC 10231	MFC99				32 µg/mL
Clc1ccc(C(c2ccccc2)N2CCN(CCn3ccnc3)CC2)cc1		MFC			broth dilution	>256 µg/mL
C[C@@H](c1nc(-c2ccc(C#N)cc2)cs1)[C@](O)(Cn1cnnc1)c1ccc(F)cc1F	A28200	MFC99				>16 µg/mL
Cc1ccc2nc(Cl)c(C3SC(=Cc4ccc(O)cc4)C(=O)N3n3c(-c4ccc(Cl)cc4)nc4ccccc4c3=O)cc2c1		MIC99			broth dilution / visual reading	500 µg/mL
Clc1nssc1=Nc1cccc2cccnc12	ATCC 10231	MFC99				16 µg/mL
CC1=CC[C@@H]2[C@H](C1)C2(C)C	D5	MLC				0.08–0.16 µg/mL
C[C@H]1[C@H](O)[C@@H](C)/C=C/C=C/C=C/C=C/C=C/C=C/C=C/[C@H](O[C@@H]2O[C@H](C)[C@@H](O)[C@H](N)[C@@H]2O)C[C@@H]2O[C@](O)(C[C@@H](O)C[C@@H](O)CC[C@H](O)[C@@H](O)C[C@@H](O)CC(=O)O[C@H]1C)C[C@H](O)[C@H]2C(=O)O	ATCC 90028	inhibition	1 µg/mL		broth dilution	100%
CC(C)CC(O)C(=O)O	ATCC 10231	MFC100			broth dilution / visual reading	72000 µg/mL
Cc1ccc2cccc(N=c3ssnc3Cl)c2n1	ATCC 10231	MFC99				32 µg/mL
c1ccc(C(c2ccccc2)n2nnc3ccccc32)cc1		MFC			broth dilution	>256 µg/mL
C=CCc1ccc(O)c(OC)c1	ATCC 90028	MIC90			turbidity	475 µg/mL
Oc1cccc2c(N=c3ssnc3Cl)cccc12	ATCC 10231	MFC99				16 µg/mL